PubChem BioAssay AID624099, ICCB-Longwood | 2012

Assay: 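Host factors E2 relies on to silence an HPV18 LCR reporter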 (primary screen)
Cell system: human C33A cervical carcinoma cells (HPV-negative) stably expressing BPV1 E2 and an HPV18 LCR luciferase reporter
Reagents: siRNA pool against human genes, 40 nM
Duration: 72 h
Detection: 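Per-well luciferase luminescence, z-scored on each plate against the plate mean and SD with control wells left out, then averaged across three replicate plates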
Reading the numbers: mean z-score and z-score: higher = stronger reporter signal, weaker E2 silencing
Hit rule: 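Hit if mean z-score reaches 2 and two or more of three replicate z-scores also reach 2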
Shown is a random part of about 21,000 reagents. 497 of all reagents (2.4%) were called active. 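Higher z means weaker E2 silencing; only reporter increases were scored, and knock-downs that hurt cell survival may mask genuine repressor factors.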

Which result is listed for NUP42 [SID134323515]?
mean z-score: 2.22; z-score, replicate A: 2.21; z-score, replicate B: 2.31; z-score, replicate C: 2.15; call: active

For VAV2 [SID134310801], what was measured?
mean z-score: 0.08; z-score, replicate A: 0.06; z-score, replicate B: -0.08; z-score, replicate C: 0.27; call: inactive

What did the screen give for PABIR3 [SID134320580]?
mean z-score: -1.4; z-score, replicate A: -1.57; z-score, replicate B: -1.46; z-score, replicate C: -1.17; call: inactive

For TICRR [SID134322596], what does the deposit list?
mean z-score: 0.34; z-score, replicate A: 0.21; z-score, replicate B: 0.43; z-score, replicate C: 0.37; call: inactive

For CUTA [SID134324604], what does the deposit list?
mean z-score: 1.17; z-score, replicate A: 1.18; z-score, replicate B: 1.17; z-score, replicate C: 1.15; call: inactive

What did the screen give for TAS2R5 [SID134317612]?
mean z-score: 0.1; z-score, replicate A: 0.26; z-score, replicate B: -0.1; z-score, replicate C: 0.13; call: inactive

With RNMT [SID134323308], what was measured?
mean z-score: -0.5; z-score, replicate A: -0.47; z-score, replicate B: -0.43; z-score, replicate C: -0.61; call: inactive

Which result is listed for LOC400164 (retired record) [SID134328465]?
mean z-score: 0.1; z-score, replicate A: 0.2; z-score, replicate B: 0.1; z-score, replicate C: 0.01; call: inactive

How did the screen score SESTD1 [SID134322241]?
mean z-score: -0.43; z-score, replicate A: -0.48; z-score, replicate B: -0.84; z-score, replicate C: 0.03; call: inactive

For WDR83OS [SID134323941], what was measured?
mean z-score: -0.17; z-score, replicate A: 0.01; z-score, replicate B: -0.24; z-score, replicate C: -0.27; call: inactive

For LINC01619 [SID134328341], how do the results read?
mean z-score: -0.09; z-score, replicate A: 0.06; z-score, replicate B: -0.08; z-score, replicate C: -0.24; call: inactive

With LTN1 [SID134312093], how do the results read?
mean z-score: -0.36; z-score, replicate A: -0.59; z-score, replicate B: -0.25; z-score, replicate C: -0.23; call: inactive

With TNRC6A [SID134318286], what was measured?
mean z-score: -1.86; z-score, replicate A: -1.76; z-score, replicate B: -2.06; z-score, replicate C: -1.78; call: inactive

With TBX15 [SID134325290], what does the deposit list?
mean z-score: -0.29; z-score, replicate A: -0.2; z-score, replicate B: -0.3; z-score, replicate C: -0.36; call: inactive

What is on record for LLGL1 [SID134316192]?
mean z-score: -0.61; z-score, replicate A: -0.36; z-score, replicate B: -0.69; z-score, replicate C: -0.8; call: inactive

For TSSK4 [SID56478999], how do the results read?
mean z-score: -1.91; z-score, replicate A: -2.72; z-score, replicate B: -1.41; z-score, replicate C: -1.61; call: inactive

What is on record for DLX3 [SID134316331]?
mean z-score: -0.6; z-score, replicate A: -0.67; z-score, replicate B: -0.56; z-score, replicate C: -0.56; call: inactive

For FBN1 [SID134315398], how do the results read?
mean z-score: -0.22; z-score, replicate A: -0.14; z-score, replicate B: -0.26; z-score, replicate C: -0.27; call: inactive

What did the screen give for TKTL1 [SID134310601]?
mean z-score: 0.51; z-score, replicate A: 0.78; z-score, replicate B: 0.1; z-score, replicate C: 0.64; call: inactive

What did the screen give for NAPA [SID134315859]?
mean z-score: 0.04; z-score, replicate A: 0.07; z-score, replicate B: -0.18; z-score, replicate C: 0.21; call: inactive

What did the screen give for ZNF491 [SID134322599]?
mean z-score: 0.7; z-score, replicate A: 0.5; z-score, replicate B: 0.66; z-score, replicate C: 0.93; call: inactive

Records above with an active call (1):
NUP42 [SID134323515] — mean z-score: 2.22; z-score, replicate A: 2.21; z-score, replicate B: 2.31; z-score, replicate C: 2.15; call: active
